Compound potency records, mixed from different reports. Data source: NIAID ChemDB in PubChem.

All rows: tests on isolated targets; species: HIV-1; target: Reverse transcriptase; read by: nucleotide incorporation / radiometric; endpoint: fold resistance

Fold resistance: result on the changed form divided by that on wild type. a–b is a range or a potency band. Lines come from different laboratories, so protocols vary.

| structure | mutations | result |
|---|---|---|
| CCN1c2ncc(CCOc3ccc(CC(=O)O)c4ccccc34)cc2C(=O)N(C)c2ccc(F)nc21 | RT-V106A | >10 |
| Nc1ncnc2c1ncn2[C@@H]1O[C@H](COP(=O)(O)OP(=O)(O)OP(=O)(O)O)C[C@@H]1F | RT-Q151M | 2.46 |
| CCC1(c2cccc(I)c2)Oc2ccccc2-n2cccc2C1=O | RT-V106A | 2.6 |
| CCN1c2ncc(CCOc3cccc4c3CCCN4CC(=O)O)cc2C(=O)N(C)c2cccnc21 | RT-Y188L | >10 |
| CCC1(c2cccc(COc3ccccc3)c2)Oc2ccccc2-n2cccc2C1=O | RT-L100I | 1.875 |
| CCN1c2ncc(CCOc3ccc(/C=C(\C)C(=O)O)c4ccccc34)cc2C(=O)Nc2c(C)cc(F)nc21 | RT-V106A | 1–10 |
| CC(C)=CCN1Cc2cc(Cl)cc3[nH]c(=O)n(c23)C[C@@H]1C | RT-V106A | 12 |
| CCC1(c2ccc(Cn3ccsc3=N)cc2)Oc2ccccc2-n2cccc2C1=O | RT-Y181I | >6.25 |
| CCOCn1c(Cc2ccccc2)c(C(C)C)c(=O)[nH]c1=O | RT-V106A | 9.7 |
| CCC1(c2ccc(CCc3ccccc3)cc2)Oc2ccccc2-n2cccc2C1=O | RT-V106A | >58.8 |
| CCN1c2ncc(CCOc3ccc(CCC(=O)O)c4ccccc34)cc2C(=O)Nc2c(C)ccnc21 | RT-V106A | 1–10 |
| CCC1(c2ccc(COc3cccnc3)cc2)Oc2ccccc2-n2cccc2C1=O | RT-Y181I | 10 |
| Nc1nc(=O)n([C@@H]2CC[C@H](COP(=O)(O)OP(=O)(O)OP(=O)(O)O)O2)cc1F | RT-Q151M | 1.18 |
| CC(C)=CCOc1cc(NC(=S)c2ccoc2C)ccc1Cl | RT-V106A | 15 |
| Nc1ncnc2c1ncn2CCOCP(=O)(O)OP(=O)(O)OP(=O)(O)O | RT-Q151M | 1.1 |
| CCOc1cccc(C2(CC)Oc3ccccc3-n3cccc3C2=O)c1 | RT-L100I | 0.26 |
| Nc1ccn([C@H]2CC[C@@H](COP(=O)(O)OP(=O)(O)OP(=O)(O)O)O2)c(=O)n1 | RT-L74V | 2.85 |
| C=C(CC(=O)O)c1ccc(OCCc2cnc3c(c2)C(=O)N(C)c2cccnc2N3CC)c2ccccc12 | RT-V106A | >10 |
| CCC1(c2ccc(COc3cccc(Cl)c3)cc2)Oc2ccccc2-n2cccc2C1=O | RT-Y188L | >100 |
| Cc1cn([C@H]2CC[C@@H](COP(=O)(O)OP(=O)(O)OP(=O)(O)O)O2)c(=O)[nH]c1=O | RT-E138K | 1 |
| Nc1ccn([C@H]2CC[C@@H](COP(=O)(O)OP(=O)(O)OP(=O)(O)O)O2)c(=O)n1 | RT-P225H | 0.65 |

Repeating the first 2 entries:

{"structure": "CCN1c2ncc(CCOc3ccc(CC(=O)O)c4ccccc34)cc2C(=O)N(C)c2ccc(F)nc21", "mutations": "RT-V106A", "result": ">10"}
{"structure": "Nc1ncnc2c1ncn2[C@@H]1O[C@H](COP(=O)(O)OP(=O)(O)OP(=O)(O)O)C[C@@H]1F", "mutations": "RT-Q151M", "result": "2.46"}